Measured values from several laboratories, pooled; numbers as filed in NIAID ChemDB.

Common to all: tests in culture; agent: Hepatitis C virus

ECn is the concentration giving n% inhibition of infection, replication or growth. An empty or dashed field is not shown. Lines come from different laboratories, so protocols vary. Two numbers with a dash give a range or band.

SMILES,cells,conditions,method,mutations,strain or isolate,endpoint,result
CCC[C@H](NC(=O)C1CC(Oc2cc(-c3ccccc3)nc3cc(OC)ccc23)CN1C(=O)[C@@H](NC(=O)OC(C)(C)C)C(C)C)C(=O)NS(=O)(=O)c1ccccc1,Huh7,,replicon,,,EC50,>10 µM
Cn1c(-c2ccccn2)c(C2CCCCC2)c2ccc(C(=O)N[C@@]3(C(=O)Nc4ccc(/C=C/C(=O)O)cc4)CCCNC3)cc21,,genotype 1b,replicon,,,EC50,0.025 µM
CCCCCCC(=O)CCCCCC/C=C/CC(O)C(O)C(N)(CO)C(=O)O,,,replicon,,,EC50,0.0058 µM
CC(=O)Nc1ccc(-c2ccc(Cl)cc2)c(COc2ccc(-c3nc4cc(C(=O)O)ccc4n3C3CCCCC3)cc2)c1,Huh7,,luciferase,,1b,EC50,0.1093 µM
NC(=O)c1ncn([C@@H]2O[C@H](CO)[C@@H](O)[C@H]2O)n1,,,luciferase,,,EC50,3 µM
CCN1CC[C@@](NC(=O)c2ccc3c(C4CCCCC4)c(-c4ccccn4)n(C)c3c2)(C(=O)Nc2ccc(/C=C/C(=O)O)cc2)C1,,genotype 1b,replicon,,,EC50,0.052 µM
CC(C)(C)OC(=O)N[C@@H]1CCCCCC=C[C@@H]2C[C@@]2(C(=O)O)NC(=O)[C@@H]2C[C@@H](OC(=O)N3Cc4ccccc4C3)CN2C1=O,Huh7,,ELISA,,,EC50,1.22 µM
C[C@@]1(O)[C@H](O)[C@@H](CO)O[C@H]1n1c2ncnc(N)c2c2c(=O)[nH]c(=S)[nH]c21,Huh7,,replicon,,,EC90,>10 µM
Fc1ccccc1-c1nc2ccn(Cc3ccc(-c4ccc(C(F)(F)F)cc4C(F)(F)F)nn3)cc-2n1,1C,,luciferase,,GT1b,EC50,0.0027 µM
NC(=O)c1ncn([C@@H]2O[C@H](CO)[C@@H](O)[C@H]2O)n1,Ava5,,replicon,,,EC50,>100 µM
Nc1ncnc2c1ccn2[C@@H]1O[C@H](CO)[C@@H](O)[C@H]1O,Huh7,,cytopathic effect,,GT1b,EC50,0.08 µM
C[C@@]1(O)[C@H](O)[C@@H](CO)O[C@H]1n1cnc2c(=O)[nH]c(N)nc21,,,,,,EC50,3.5 µM
O=C(O)/C=C/c1ccc(NC(=O)C2(NC(=O)c3ccc4c(c3)nc(-c3ccoc3)n4C3CCCCC3)CCC2)cc1,Huh7,,replicon,,,EC50,1 µM
O=c1c(O)c(-c2ccc(O)c(O)c2)oc2cc(O)c(O)c(O)c12,Huh7.5,,PCR,,1b,EC50,5.4 µM
C[C@@]1(O)[C@H](O)[C@@H](CO)O[C@H]1n1cnc2c(=O)[nH]c(N)nc21,Huh7,48 h,,,,EC50,1.4 µM
C[C@@]1(O)[C@H](O)[C@@H](CO)O[C@H]1c1c[nH]c2c(N)ncnc12,,24 h,replicon,,,EC50,>100 µM
Cc1cn([C@H]2C[C@H](N=[N+]=[N-])[C@@H](CO)O2)c(=O)[nH]c1=O,Huh7,,replicon,,,EC90,>10 µM
C[C@@]1(O)[C@H](O)[C@@H](CO)O[C@H]1n1cnc2c(N)ncnc21,Huh7 replicon,,luciferase,,1b Con1,EC50,0.2 µM
Nc1ccn([C@@H]2C[C@H](CO)[C@@H](O)[C@H]2O)c(=O)n1,Huh7,,PCR,,,EC90,25 µM
Cn1c(-c2ccccn2)c(C2CCCCC2)c2ccc(C(=O)NC(C)(C)C(=O)Nc3ccc(NC(=O)C(N)=O)cc3)cc21,,genotype 1b,replicon,,,EC50,0.18 µM
COC(=O)N[C@H](C(=O)N1CCC[C@H]1c1ncc(-c2ccc(-c3ccc(-c4cnc([C@@H]5CCCN5C(=O)[C@@H](NC(=O)OC)C(C)C)[nH]4)cc3)cc2)[nH]1)C(C)C,Huh7.5.1,,luciferase / replicon,,JFH-1,EC50,0.000078 µM
O=c1cnn([C@@H]2O[C@H](CO)[C@@H](O)[C@H]2O)c(=O)[nH]1,Huh7,,PCR,,,EC90,>100 µM
CCC[C@H](NC(=O)[C@@H]1[C@H]2CCC[C@H]2CN1C(=O)[C@@H](NC(=O)[C@@H](NC(=O)c1cnccn1)C1CCCCC1)C(C)(C)C)C(=O)C(=O)NC1CC1,Huh7.5,,luciferase / reporter gene,P58L,genotype 1b,EC50,0.2565 µM
O=c1[nH]c(=O)n([C@H]2C[C@H](O)[C@@H](CO)O2)cc1F,Huh7,,PCR,,,EC90,>100 µM
C[C@@]1(O)[C@H](O)[C@@H](CO)O[C@H]1n1ccc(N)nc1=O,Huh7,,replicon,,CLONE A S282T,EC90,>100 µM
O1[As]2O[As]3O[As]1O[As](O2)O3,,,PCR,,Strain O genotype 1b,EC50,0.27 µM
CC[C@H](C)C(=O)O[C@H]1C[C@@H](C)C=C2C=C[C@H](C)[C@H](CC[C@@H]3C[C@@H](O)CC(=O)O3)[C@H]21,HUH7-K2040,,,,,EC50,>10 µM
CC(C)OC(=O)[C@H](C)N[P@](=O)(OCC1O[C@@H](n2ccc(=O)[nH]c2=O)[C@](C)(F)[C@@H]1O)Oc1ccccc1,1C,,luciferase,P89L K583E,GT3a,EC50,0.013 µM
CCC[C@H](NC(=O)[C@@H]1[C@H]2CCC[C@H]2CN1C(=O)[C@@H](NC(=O)[C@@H](NC(=O)c1cnccn1)C1CCCCC1)C(C)(C)C)C(=O)C(=O)NC1CC1,Huh7,,PCR,R1135K S1560G K1691R T1993A G2042C L2155P P2166L,1b H77,EC50,0.54 µM
C/C1=C\CC[C@@]2(C)O[C@H]2[C@H]2OC(=O)[C@@H](CN3CCCCC3)[C@@H]2CC1,Huh7,,replicon,,,EC50,1.64 µM
NC(=O)c1ncn([C@@H]2O[C@H](CO)[C@@H](O)[C@H]2O)n1,HUH7/REP-FEO,,,,,EC50,125.8 µM
CN1CC[C@@](NC(=O)c2ccc3c(C4CCCCC4)c(-c4ccccn4)n(C)c3c2)(C(=O)Nc2ccc(/C=C/C(=O)O)cc2)C1,,genotype 1b,replicon,,,EC50,0.037 µM
CCC[C@H](NC(=O)[C@@H]1[C@H]2CCC[C@H]2CN1C(=O)[C@@H](NC(=O)[C@@H](NC(=O)c1cnccn1)C1CCCCC1)C(C)(C)C)C(=O)C(=O)NC1CC1,Huh7.5.1,,luciferase / replicon,,JFH-1,EC50,0.613 µM
NC(=O)NO,Huh7,,PCR,,,EC90,>100 µM
Cc1nnc(C(=O)NC(C)(C)c2nc(C(=O)NCc3ccc(F)cc3)c(O)c(=O)n2C)o1,Replicon cells,45% human serum,luciferase,,GT1b,EC50,>143 µM
COC(=O)N[C@H](C(=O)N1CCC[C@H]1c1ncc(-c2ccc(-c3ccc(-c4cnc([C@@H]5CCCN5C(=O)[C@@H](NC(=O)OC)C(C)C)[nH]4)cc3)cc2)[nH]1)C(C)C,1C,,luciferase,,GT1b,EC50,0.00004 µM
C[C@@]1(O)[C@H](O)[C@@H](CO)O[C@H]1n1ccc(N)nc1=O,HuH6,,replicon,,,EC50,0.7 µM
CN(C)CCN(C)[C@H]1COc2ccccc2-c2c(C3CCCCC3)c3ccc(C(=O)O)cc3n2C1,1C,,luciferase,P89L K583E,GT3a,EC50,0.537 µM
COC(=O)N[C@H](C(=O)N1CCC[C@H]1c1ncc(-c2ccc(-c3ccc(-c4cnc([C@@H]5CCCN5C(=O)[C@@H](NC(=O)OC)C(C)C)[nH]4)cc3)cc2)[nH]1)C(C)C,Huh7.5,,antigen,,J6,EC50,0.00008 µM
CC1=CC[C@H](C(=O)N(c2cc(C#CC(C)(C)C)sc2C(=O)O)C2CCC(O)(CO[C@H]3CCOC3)CC2)CC1,Huh7-Lunet,,luciferase,,GT-1b Con1,EC50,0.0028 µM
Cn1c(-c2ccccn2)c(C2CCCCC2)c2ccc(C(=O)N[C@@]3(C(=O)Nc4ccc(/C=C/C(=O)O)cc4)CCNC3)cc21,,genotype 1b,replicon,,,EC50,0.154 µM
NC(=O)c1[nH]nc([C@@H]2O[C@H](CO)[C@@H](O)[C@H]2O)c1O,Huh7,,PCR,,,EC90,3.8 µM
Nc1ncnc2c1ncn2[C@@H]1O[C@H](OCCP(=O)(O)O)[C@@H](O)[C@H]1O,Huh7,,replicon,,,EC50,200 µM
C=C[C@H]1CC1(NC(=O)[C@@H]1C[C@@H](Oc2cc(-c3ccccc3)nc3cc(OC)ccc23)CN1C(=O)[C@@H](NC(=O)OC(C)(C)C)C(C)C)C(=O)O,Huh7,,replicon,,,EC50,3.2 µM
Cn1cnc([N+](=O)[O-])c1Sc1ncnc2nc[nH]c12,MDBK,,replicon / PCR,,1BN,EC50,<5 µM
NC(=O)c1ncn([C@@H]2O[C@H](CO)[C@@H](O)[C@H]2O)n1,,,,,,EC50,12–40 µM
C=C1CC(=O)OC1=O,Huh7,,replicon,,,EC50,>10 µM
COc1ccc([C@@H]2Oc3ccc([C@H]4Oc5cc(O)cc(O)c5C(=O)[C@@H]4O)cc3O[C@H]2CO)cc1O,,,,,1b,EC50,>40 µM
C/C1=C\CC[C@@]2(C)O[C@H]2[C@H]2OC(=O)[C@@H](CN3CCCCCC3)[C@@H]2CC1,Huh7,,replicon,,,EC50,2.05 µM
Nc1ccn([C@@H]2CS[C@H](CO)O2)c(=O)n1,Replicon cells,45% human serum,luciferase,,GT1b,EC50,>241 µM
CC(C)OC(=O)[C@H](C)N[P@](=O)(OC[C@H]1O[C@@](C#N)(c2ccc3c(N)ncnn23)[C@](C)(O)[C@@H]1OC(=O)C(C)C)Oc1ccccc1,Huh7 replicon,,luciferase,,1a H77,EC50,0.18 µM
Nc1ncnc2c1c1c(=O)[nH]c(=S)[nH]c1n2[C@@H]1O[C@H](CO)[C@@H](O)[C@H]1O,Huh7,,replicon,,,EC90,>10 µM
COc1ccc2c(O[C@@H]3C[C@H]4C(=O)N[C@]5(C(=O)O)C[C@H]5/C=C\CCCCC[C@H](NC(=O)OC5CCCC5)C(=O)N4C3)cc(-c3csc(NC(C)C)n3)nc2c1,1C,,luciferase,P89L K583E,GT3a,EC50,0.347 µM
C[C@@]1(O)[C@H](O)[C@@H](CO)O[C@H]1n1cnc2c(N)ncnc21,Huh7-Lunet,,luciferase,,GT2a (JFH1),EC50,0.672 µM
C=C[C@@H]1C[C@]1(NC(=O)[C@@H]1C[C@@H]2CN1C(=O)[C@H](C(C)(C)C)NC(=O)C[C@@H]1C[C@H]1CCCCCc1nc3ccc(OC)cc3nc1O2)C(=O)NS(=O)(=O)C1CC1,1C,,luciferase,,GT1b,EC50,0.0008 µM
C=C1CCOC1=O,Huh7,,replicon,,,EC50,>10 µM
Cn1c(-c2ccccn2)c(C2CCCCC2)c2ccc(C(=O)NC3(C(=O)Nc4ccc(/C=C/C(=O)O)cc4)CCOCC3)cc21,,genotype 1b,replicon,,,EC50,0.18 µM
C[C@H](Cn1cnc2c(N)ncnc21)OCP(=O)(O)O,Replicon cells,45% human serum,luciferase,,GT1b,EC50,>237 µM
CCC[C@H](NC(=O)[C@@H]1[C@H]2CCC[C@H]2CN1C(=O)[C@@H](NC(=O)[C@@H](NC(=O)c1cnccn1)C1CCCCC1)C(C)(C)C)C(=O)C(=O)NC1CC1,Huh7.5,,antigen,,JFH-1,EC50,0.516 µM
Nc1n[nH]c(N)n1,Huh7,,PCR,,,EC90,>100 µM
CC(Cc1ccc(O)c(O)c1)C(C)Cc1ccc(O)c(O)c1,Huh7,,luciferase,,,EC50,30 µM
CCC[C@H](NC(=O)C1CC(Oc2cc(-c3ccccc3)nc3cc(OC)ccc23)CN1C(=O)[C@@H](NC(=O)OC(C)(C)C)C(C)C)C(=O)CS(=O)(=O)c1ccccc1,Huh7,,replicon,,,EC50,>10 µM

4 of the rows above, restated:

SMILES | cells | conditions | method | mutations | strain or isolate | endpoint | result
C[C@@]1(O)[C@H](O)[C@@H](CO)O[C@H]1n1cnc2c(N)ncnc21 | Huh7-Lunet |  | luciferase |  | GT2a (JFH1) | EC50 | 0.672 µM
C[C@@]1(O)[C@H](O)[C@@H](CO)O[C@H]1n1c2ncnc(N)c2c2c(=O)[nH]c(=S)[nH]c21 | Huh7 |  | replicon |  |  | EC90 | >10 µM
C[C@@]1(O)[C@H](O)[C@@H](CO)O[C@H]1c1c[nH]c2c(N)ncnc12 |  | 24 h | replicon |  |  | EC50 | >100 µM
COC(=O)N[C@H](C(=O)N1CCC[C@H]1c1ncc(-c2ccc(-c3ccc(-c4cnc([C@@H]5CCCN5C(=O)[C@@H](NC(=O)OC)C(C)C)[nH]4)cc3)cc2)[nH]1)C(C)C | 1C |  | luciferase |  | GT1b | EC50 | 0.00004 µM